Laboratory results from US20150353852A1, “Microorganisms for Producing Volatile Organic Compounds” (priority 2010, published 2015).

Assay: SPME-GC/MS analysis of fungal VOCs (composition)
Conditions: for Relative Area: VOCs produced by F1-9, a Nodulisporium sp. isolate, GC/MS; for Percent: share of total relative area of VOCs produced by F1-9, a Nodulisporium sp. isolate

With `C=C1CCC(C(C)C)C2C=C(C)CCC12` (single isomer, unassigned; (+)) [(+)-Epi-bicyclosesquiphellandrene] the “Relative Area” value was 89.86 ng and the Percent was 0.25%.
With `CC1=CCC[C@]2(C)CCC(=C(C)C)C[C@@H]12` (relative stereo) the “Relative Area” value was 1516.84 ng and the Percent was 4.30%.
For `CC1=CCC2C(=C1)C(C)(C)CCCC2C` (stereo not drawn) [Himachala-2,4-diene], the “Relative Area” value was 122.17 ng and the Percent was 0.35%.
In the case of `CCC(C)CC(C)=O` (stereo not drawn) [2-Hexanone, 4-methyl-], the “Relative Area” value is reported as 132.80 ng and the Percent is reported as 0.38%.
With `C=CC1(C)CCCC(=C)CC1C=C(C)C` (stereo not drawn) the “Relative Area” value was 236.25 ng and the Percent was 0.67%.
For `CC1=CC[C@]2(C)CCCC(C)(C)[C@@]23C[C@@H]13` [Thujopsene], the “Relative Area” value was 155.35 ng and the Percent was 0.44%.
For `OCCc1ccccc1` [Phenylethyl Alcohol], the “Relative Area” value was 70.38 ng and the Percent was 0.20%.
In the case of `C=C1CCC[C@]2(C)CCC(=C(C)C)C[C@@H]12` (relative stereo), the “Relative Area” value is reported as 264.82 ng and the Percent is reported as 0.75%.
In the case of `CC1=C[C@@H]2[C@H](CC1)C(C)=CCCC2(C)C`, the “Relative Area” value is reported as 146.86 ng and the Percent is reported as 0.42%.
For `CCC(=O)C(C)C(CC)CC` (stereo not drawn) [3-Heptanone, 5-ethyl-4-methyl-], the “Relative Area” value was 313.67 ng and the Percent was 0.89%.
For `CC1=CC[C@@]23C[C@@H]1C(C)(C)[C@@H]2CC[C@H]3C`, the “Relative Area” value was 339.30 ng and the Percent was 0.96%.
For `CC(C)CCO` [1-Butanol, 3-methyl-], the “Relative Area” value was 1999.66 ng and the Percent was 5.67%.
For `C=C(C)[C@@H]1CCC(C)=C2CC[C@H](C)[C@@H]2C1`, the Percent was 2.50% and 11.50%.
With `CC12CCC(CC1)C(C)(C)O2` [cineole] the “Relative Area” value was 6153.56 ng and the Percent was 17.45%.
For `C/C1=C\CC/C(C)=C/CC(C)(C)/C=C/C1` [α-Caryophyllene], the “Relative Area” value was 139.68 ng and the Percent was 0.40%.
In the case of `C=C(C)[C@H]1CC=C(C)CC1` [D-Limonene], the “Relative Area” value is reported as 85.70 ng and the Percent is reported as 0.24%.
With `CC1=CC2=C(C(C)C)CC[C@@H](C)[C@@H]2CC1` [Epizonarene] the “Relative Area” value was 651.67 ng and the Percent was 1.85%.
For `CC(C)CO` [1-Propanol, 2-methyl-], the “Relative Area” value was 79.46 ng and the Percent was 0.23%.
For `C=C1CCCC(C)(C)C12CC=C(C)CC2` (stereo not drawn), the “Relative Area” value was 234.11 ng and the Percent was 0.66%.
For `C=C1CCCC(C)(C)[C@H]2C=C(C)CC[C@@H]12` (relative stereo), the “Relative Area” value was 276.47 ng and the Percent was 0.78%.
With `C=C1CC/C=C(/C)CC[C@@H]2[C@@H]1CC2(C)C` [Caryophyllene] the “Relative Area” value was 178.91 ng and the Percent was 0.51%.
In the case of `C=C1C=C2[C@@H](CC1)[C@@H](C)CCCC2(C)C` [10s,11s-Himachala-3(12),4-diene], the “Relative Area” value is reported as 84.09 ng and the Percent is reported as 0.24%.
In the case of `CC1=CC[C@@H]2[C@@H]3[C@H]1[C@@]2(C)CCCC3(C)C`, the “Relative Area” value is reported as 257.54 ng and the Percent is reported as 0.73%.

Several values for one entry are separate records, joined by “and”; a condition that tells them apart may be missing. Equal entries are not always repeated.
